Results published in PMC9400670, “Establishing the selective phospholipid membrane coordination, permeation and lysis properties for a series of ‘druggable’ supramolecular self-associating antimicrobial amphiphiles” (Chemical Science, 2022).

Experiments:
Type in all cases: binding
Settings in all cases: SSA 100 µM; Hill Plot fit, Vmax fixed 100 %
[1] = test system: PG nanodiscs; test: Phospholipid nanodisc 1H NMR CPMG coordination assay, PG nanodiscs
Description: (§1) Finally, to establish how any single SSA structural variation affects the coordination of an individual salt component to the surface of a phospholipid membrane, the binding of the anionic and cationic components of SSAs 5–12 with nanodiscs comprised of PC, PG or the PE : PG mix (Table 2) was studied. Nanodiscs were synthesised from synthetic vesicles of the relevant phospholipid composition. For full synthetic procedures and nanodisc characterisation please see ESI (Section 13). ^†[34,35]
(§2) Styrene-maleic acid (SMA) nanodiscs are small biomimetic scaffolds with a hydrodynamic diameter ≈ 10 nm. They consist of a single disc-shaped planar phospholipid bilayer, ‘belted’ in this instance with a synthetic SMA co-polymer. Here nanodiscs of a specific phospholipid composition were titrated against a solution of SSAs 5–12 (0.10 mM) in a sodium phosphate buffer (20 mM) with NaCl (20 mM) at pH 7.4. This solution was supplemented with 5% D2O, to enable NMR locking and 4,4-dimethyl4-silapentane-1-sulfonic acid (DSS – 0.02 mM) to act as an internal standard. The nanodiscs were then titrated against the SSA, while the SSA concentration was maintained as constant, well below the CMC (Table 3).[38] A 1D ^1H NMR with a Carr–Purcell–Meiboom–Gill sequence (CPMG) filter (300 ms),[36,48] modified with a watergate element was then obtained for each experimental data point. The watergate element was used to allow suppression of the water signal, whereas the CPMG filter enabled the suppression of those resonances from molecular species with long correlation times, which in this instance correlate to the signals of those SSAs coordinated to the nanodisc, rather than those which exist as free species in solution. Comparative integration of the resonances corresponding to the SSA cation or anion, standardised against the DSS internal standard, permits the percentage of the individual SSA components coordinated to the phospholipid nanodisc to be established with respect to increasing nanodisc concentration.
(§3) However, when considering the 1/EC50 for the SSA cationic component (Fig. 10b), the reverse is true. This is perhaps expected, but nevertheless despite the identical experimental conditions, including the same TBA counter cation across SSAs 5–12, there is a marked difference in the 1/EC50 obtained, where the only difference is the SSA anion present. This is most noticeable for the series of SSA titrations involving the PE : PG mix (Table 2) nanodiscs. The only variation within this set of titrations is the structure of the SSA anion; we therefore conclude that the SSA anion is influencing SSA cation nanodisc coordination events. This observation provides evidence for the presence of further complex interactions informing SSA:nanodisc coordination processes. […]
(§4) Data were acquired in endpoint mode. All experiments were repeated in triplicate […]
(§5) Nanodisc preparation: Lipid films were resuspended in Buffer (20 mM NaCl, 20 mM NaH 2PO4, pH 7.4) and sonicated for 1 hour, at a 5:1 ratio, SMA was added and incubated at 37 °C for 1 hour. Dialysed overnight in 5 L of the same buffer in 10 KDa cut-off dialysis tubing, concentrated, and underwent gel filtration size exclusion chromatography on a Superdex 200 10/300 GL column (GE Healthcare) in the same buffer, whilst monitoring absorbance at 260 nm. Nanodisc quantification carried out via monitoring of absorbance at 260 nm using a calibration curve.2
(§6) 1H NMR CPMG: 1H NMR CPMG3,4 spectra were obtained with a Bruker Avance III […] spectrometer equipped with a TCIP cryoprobe at 298 K. Samples were supplemented with 5 % D 2O and 0.02 mM 4,4-dimethyl4-silapentane-1-sulfonic acid (DSS). The standard zgprcpmg pulse sequence from the Bruker library was modified with a watergate element to allow suppressi on of the water signal and was used for all experiments. Although this sequence is readily obtainable, we are happy to provide it on request. The P1 pulses were 9 µs at a power of 7.9 W. Presaturation was applied between […]

[2] = test system: PE:PG mix nanodiscs; test: Phospholipid nanodisc 1H NMR CPMG coordination assay, PE:PG mix nanodiscs
Description: as §1, §2, §3, §4, §5, §6

[3] = test system: PC nanodiscs; test: Phospholipid nanodisc 1H NMR CPMG coordination assay, PC nanodiscs
Description: as §1, §2, §3, §4, §5, §6

| Compound | hill coefficient (n) PG, cationic SSA component [1] | hill coefficient (n) PE:PG mix, anionic SSA component [2] | hill coefficient (n) PE:PG mix, cationic SSA component [2] | hill coefficient (n) PG, anionic SSA component [1] | hill coefficient (n) PC, anionic SSA component [3] | hill coefficient (n) PC, cationic SSA component [3] |
| --- | --- | --- | --- | --- | --- | --- |
| O=C(NCS(=O)(=O)O)Nc1ccccc1-c1nc2ccccc2s1 [SSA 5] | 1.11 | 2.05 | 1.60 |  |  |  |
| Cc1ccc2nc(-c3ccc(NC(=O)NCCC(=O)O)cc3)sc2c1 [SSA 9] | 1.34 | 3.76 |  | 3.29 | 1.43 | 0.71 |
| Cc1ccc2nc(-c3ccc(NC(=O)NCC(=O)O)cc3)sc2c1 [SSA 11] | 1.45 | 1.69 | 0.87 | 2.41 | 1.10 |  |
| O=C(NCS(=O)(=O)O)Nc1ccc(-c2nc3ccccc3s2)cc1 [SSA 8] | 1.35 | 0.98 |  |  | 1.06 |  |
| Cc1ccc2nc(NC(=O)NCS(=O)(=O)O)sc2c1 [SSA 7] | 1.20 |  | 0.81 |  |  |  |
| Cc1ccc2nc(-c3ccc(NC(=O)NCS(=O)(=O)O)cc3)sc2c1 [SSA 6] | 0.93 | 1.85 | 0.70 | 1.60 | 1.84 |  |
| Cc1ccc2nc(-c3ccc(NC(=S)NCS(=O)(=O)O)cc3)sc2c1 [SSA 12] | 0.75 | 1.44 | 0.62 | 1.51 | 2.65 | 0.42 |
| Cc1ccc2nc(-c3ccc(NC(=O)NCCCS(=O)(=O)O)cc3)sc2c1 [SSA 10] | 0.67 | 1.25 | 0.95 | 1.47 | 1.80 | 1.27 |
